Pooled drug test results. Numbers come from NIAID ChemDB, via PubChem.

All rows: growth or infection tests; organism: Candida albicans; method: agar diffusion / agar; measure: zone

Zone: diameter of growth inhibition. Rows are shuffled and stem from different studies. An empty or dashed field is not shown.

smiles	strain or isolate	dose	value
COc1cc(C2C=C(c3ccc4c(c3)OCO4)NC(SCC(=O)Nc3ccc(Cl)cc3)N2)cc(OC)c1OC	DSM 70014	1 mg/mL	14 mm
N#Cc1cc(/C=C2\SC(=O)NC2=O)c(-c2ccccc2O)[nH]c1=O	fungal strain	100 µg/mL	14 mm
COc1ccc(C2=NN(C=O)C(c3cc(OC)c(OC)c(OC)c3)C2)cc1OC	DSM 70014	1 mg/mL	16 mm
CC(=O)n1ncc(/C=C2\SC(=O)NC2=O)c1-c1ccccc1O	fungal strain	100 µg/mL	8 mm
O=C(NN=Cc1ccc(Br)cc1)c1snnc1C(F)(F)F	MTCC 227	100 µg/mL	0 mm
C[C@@H]1[C@H](O)[C@@H](C)/C=C/C=C/C=C/C=C/C=C/C=C/C=C/[C@H](O[C@@H]2O[C@H](C)[C@@H](O)[C@H](N)[C@@H]2O)C[C@@H]2O[C@](O)(C[C@@H](O)C[C@@H](O)[C@H](O)CC[C@@H](O)C[C@@H](O)CC(=O)O[C@H]1C)C[C@H](O)[C@H]2C(=O)O	-	30 µg/disc	19 mm
O=C(/C=C/c1ccccc1O)c1ccc(C(=O)/C=C/c2ccccc2O)cc1	ATCC 10231	400 µg/mL	0 mm
O=C(NN=Cc1ccc(O)cc1)c1snnc1C(F)(F)F	MTCC 227	150 µg/mL	0 mm
CCc1cc(N)c(/C=N/NC(=O)N/N=C/c2cc(O)c(CC)cc2N)cc1O.[Cl][Cr+2]	-	1 mg/mL	12 mm
N=C1C(=S)N(c2ccccc2)C(=O)N1c1ccc(F)cc1	IMRU-3669	5 mg/mL	13 mm
O=C(/C=C/c1cccc([N+](=O)[O-])c1)c1ccc(C(=O)/C=C/c2cccc([N+](=O)[O-])c2)cc1	ATCC 10231	400 µg/mL	0 mm
O=C(NN=Cc1ccccc1)c1snnc1C(F)(F)F	MTCC 227	150 µg/mL	12 mm
C[C@H]1[C@H](O)[C@@H](C)/C=C/C=C/C=C/C=C/C=C/C=C/C=C/[C@H](O[C@@H]2O[C@H](C)[C@@H](O)[C@H](N)[C@@H]2O)C[C@@H]2O[C@](O)(C[C@@H](O)C[C@@H](O)CC[C@H](O)[C@@H](O)C[C@@H](O)CC(=O)O[C@H]1C)C[C@H](O)[C@H]2C(=O)O	MTCC 277	50 µg/mL	23.5 mm
N=C1C(=S)N(c2ccc(F)cc2)C(=O)N1c1ccc(Oc2ccc(N3C(=N)C(=S)N(c4ccc(F)cc4)C3=O)cc2)cc1	IMRU-3669	5 mg/mL	17 mm
COc1ccc(/C=c2\sc3n(c2=O)C(c2cc(OC)c(OC)c(OC)c2)C=C(c2ccc(OC)c(OC)c2)N=3)cc1	DSM 70014	1 mg/mL	14 mm
O=c1[nH]c(O)c(/C=C2\C=Nc3ccccc3N=C2c2ccccc2O)s1	fungal strain	100 µg/mL	15 mm
COc1ccc(C2CC(c3ccc(F)cc3)=NN2c2ccc(S(N)(=O)=O)cc2)c(OC)c1	MTCC 227	4 mg/mL	0 mm
CC(=NNC(=O)c1snnc1C(F)(F)F)c1ccc(Br)cc1Br	MTCC 227	150 µg/mL	15 mm
O=C1NC(=O)/C(=C/c2cnoc2-c2ccccc2O)S1	fungal strain	100 µg/mL	8 mm
N=C1C(=S)N(c2ccc(F)cc2)C(=O)N1c1ccc(Cl)c(C(F)(F)F)c1	IMRU-3669	5 mg/mL	17 mm
COc1ccc(Cc2ccc(OC)c(-c3nnc4sc(Cc5ccc(Cl)cc5)nn34)c2)cc1-c1nnc2sc(Cc3ccc(Cl)cc3)nn12	ATCC 10231	100 µg/disc	16 mm
N#Cc1c(-c2ccccc2)nc2ncc(/C=C3\SC(=O)NC3=O)c(-c3ccccc3O)n2c1=O	fungal strain	100 µg/mL	12 mm
O=C(/C=C/c1ccc(Br)cc1)c1ccc(C(=O)/C=C/c2ccc(Br)cc2)cc1	ATCC 10231	400 µg/mL	0 mm
CN(C)c1ccc(C=NNC(=O)c2snnc2C(F)(F)F)cc1	MTCC 227	150 µg/mL	0 mm
COC1=CC(=O)C[C@@H](C)[C@]12Oc1c(Cl)c(OC)cc(OC)c1C2=O	IMRU-3669	5 mg/mL	23 mm
C=C1CC[C@@H](OC(C)=O)[C@]2(C)[C@H](OC(C)=O)[C@H](OC(C)=O)[C@H](OC(C)=O)[C@@]3(CO3)[C@H]2[C@@H](OC(C)=O)[C@@]2(O)[C@H](C)C(=O)O[C@@H]2[C@@H]1Cl	-	200 µg/mL	8 mm
CCc1cc(N)c(/C=N/NC(=O)N/N=C/c2cc(O)c(CC)cc2N)cc1O	-	1 mg/mL	9 mm
CCCCN(CCCC)CC(O)c1cc(Cl)cc2c1-c1ccc(Cl)cc1/C2=C/c1ccc(Cl)cc1	IFO 0583	200 µg/disc	<10 mm
COc1ccc(C2=CC(c3cc(OC)c(OC)c(OC)c3)NC(=S)N2C)cc1OC	DSM 70014	1 mg/mL	16 mm
COc1ccc(Cc2ccc(OC)c(-c3nnc4sc(-c5ccc(Cl)cc5)nn34)c2)cc1-c1nnc2sc(-c3ccc(Cl)cc3)nn12	ATCC 10231	100 µg/disc	10 mm
COc1cc(OC)cc(C2CC(c3ccc(F)cc3)=NN2c2ccc(S(N)(=O)=O)cc2)c1	MTCC 227	4 mg/mL	0 mm
COc1cc(C2CC(c3ccc4c(c3)OCO4)=NN2C(C)=O)cc(OC)c1OC	DSM 70014	1 mg/mL	15 mm
Clc1ccc(Nc2ccc(-c3nc(-c4ccccc4)c(-c4ccccc4)s3)cc2)cc1	ATCC 10231	100 µg/mL	23 mm
CC(=NNC(=O)c1snnc1C(F)(F)F)c1ccc([N+](=O)[O-])cc1	MTCC 227	100 µg/mL	0 mm
NC(=S)c1ccc(OC(=O)CNc2nncs2)cc1	ATCC 10231	100 µg/mL	25 mm
N=C1C(=S)N(c2cccc(F)c2)C(=O)N1c1ccc(F)cc1	IMRU-3669	5 mg/mL	19 mm
O=C(Cc1ccc(-c2nc(-c3ccccc3)c(-c3ccccc3)s2)cc1)CN1CCCC1	ATCC 10231	100 µg/mL	22 mm
COc1cc(/C=C/C(=O)c2ccc3c(c2)OCO3)cc(OC)c1OC	DSM 70014	1 mg/mL	16 mm
O=C(NN=Cc1ccco1)c1snnc1C(F)(F)F	MTCC 227	150 µg/mL	0 mm
O=C(COc1ccc(-c2nc(-c3ccccc3)c(-c3ccccc3)s2)cc1)CN1CCOCC1	ATCC 10231	100 µg/mL	20 mm
COc1ccc(Cc2ccc(OC)c(-c3nnc4sc(-c5ccc(O)cc5)nn34)c2)cc1-c1nnc2sc(-c3ccc(O)cc3)nn12	ATCC 10231	100 µg/disc	14 mm
C=CC(C)(C)c1cc(C2CC(=O)c3c(cc(O)c(CC=C(C)C)c3O)O2)c(O)cc1O	hemoculture isolate 16655	2 mg/mL	0 mm
COc1ccc(C2CC(c3ccc(F)cc3)=NN2c2ccc(S(N)(=O)=O)cc2)cc1OC	MTCC 227	4 mg/mL	0 mm
O=C(CNc1nncs1)Cc1ccc(-c2nc(-c3ccccc3)c(-c3ccccc3)s2)cc1	ATCC 10231	100 µg/mL	26 mm
C[C@@H]1[C@H](O)[C@@H](C)/C=C/C=C/C=C/C=C/C=C/C=C/C=C/[C@H](O[C@@H]2O[C@H](C)[C@@H](O)[C@H](N)[C@@H]2O)C[C@@H]2O[C@](O)(C[C@@H](O)C[C@@H](O)[C@H](O)CC[C@@H](O)C[C@@H](O)CC(=O)O[C@H]1C)C[C@H](O)[C@H]2C(=O)O	ATCC 10231	100 µg/disc	30 mm

Repeating the final 4 entries:

smiles | strain or isolate | dose | value
C=CC(C)(C)c1cc(C2CC(=O)c3c(cc(O)c(CC=C(C)C)c3O)O2)c(O)cc1O | hemoculture isolate 16655 | 2 mg/mL | 0 mm
COc1ccc(C2CC(c3ccc(F)cc3)=NN2c2ccc(S(N)(=O)=O)cc2)cc1OC | MTCC 227 | 4 mg/mL | 0 mm
O=C(CNc1nncs1)Cc1ccc(-c2nc(-c3ccccc3)c(-c3ccccc3)s2)cc1 | ATCC 10231 | 100 µg/mL | 26 mm
C[C@@H]1[C@H](O)[C@@H](C)/C=C/C=C/C=C/C=C/C=C/C=C/C=C/[C@H](O[C@@H]2O[C@H](C)[C@@H](O)[C@H](N)[C@@H]2O)C[C@@H]2O[C@](O)(C[C@@H](O)C[C@@H](O)[C@H](O)CC[C@@H](O)C[C@@H](O)CC(=O)O[C@H]1C)C[C@H](O)[C@H]2C(=O)O | ATCC 10231 | 100 µg/disc | 30 mm